Measured values from several laboratories, pooled; numbers as filed in NIAID ChemDB.

All rows: tests in culture; agent: Mycobacterium bovis BCG; endpoint: MIC

Neighbouring rows are from separate reports. Blank or dashed fields: not listed here.

compound	changes	read by	conditions	strain	result
COc1cc(C(=O)O[C@H]2C=C(C)/C(=C\CO)C[C@@]3(C)CC[C@@](O)(C(C)C)C23)ccc1O	-	-	-	Pasteur	>50 µg/mL
CCCCCCCCC#CCCCCCCC#CC(=O)O	-	-	-	Pasteur	5.4 µM
O=C(C1CCN(c2nnc(-n3cccc3)s2)CC1)N1CCC(Cc2ccccc2)CC1	DprE1 mutant (E221Q)	fluorescence	-	recG	25 µM
CNO	-	visual reading	-	-	1.9 µg/mL
CCc1ccc(-c2cc(CN3CCOCC3)c(C)n2-c2ccc(F)cc2)cc1	L320R E466K I585V	-	-	M1	0.63 µM
Nc1ccc(C(=O)O)c(O)c1	Thymidylate synthase (thyA) overexpressing	fluorescence	-	-	0.5 µM
C#CCCCCCCCCCCCCC#CC(=O)O	-	-	-	Pasteur	1.5 µM
CC(C)[C@]1(O)CC[C@]2(C)C[C@@H]3O[C@]3(C)C[C@H](OC(=O)c3ccccc3)C21	-	-	-	Pasteur	50 µg/mL
CNC(C)C1CC[C@@H](N)[C@@H](O[C@H]2[C@H](O)[C@@H](OC3OC[C@](C)(O)[C@H](NC)[C@H]3O)[C@H](N)C[C@@H]2N)O1	-	resazurin	-	-	16 µM
COc1ccc(/C(C)=N/NC(N)=S)cc1	-	-	-	NCTC 5692 ethR::hyg	0.25 µg/mL
CC1=C[C@H](OC(=O)c2ccc(O)cc2)C2[C@](C)(CC[C@@]2(O)C(C)C)CC1=O	-	-	-	Pasteur	50 µg/mL
C[C@@H]1CN(c2c(F)c(N)c3c(=O)c(C(=O)O)cn(C4CC4)c3c2F)C[C@H](C)N1	-	broth dilution / visual reading	-	Pasteur	0.1 µg/mL
COc1cc(C(=O)O[C@H]2CC(C)(C)C=C[C@@]3(C)CC[C@@](C)(C(C)C)C23)ccc1O	-	-	-	Pasteur	>50 µg/mL
CCCCCCCCCCCCCC#CC(=O)OCCO	-	-	-	Pasteur	1 µM
CC(=O)Nc1ccc(/C=N/NC(N)=S)cc1	-	-	-	Carrying pMV261-ethA	0.25 µg/mL
CCCCCCCCCCCCSCC#CC(=O)O	-	-	-	Pasteur	1.1 µM
CC(=O)Nc1ccc(/C=N/n2cn[nH]c2=S)cc1	-	broth dilution / resazurin	24 h	-	125 µg/mL
COc1cc(C(=O)O[C@H]2C=C(C)C(=O)C[C@@]3(C)CC[C@@](O)(C(C)C)C23)ccc1O	-	-	-	Pasteur	>50 µg/mL
C[C@H]1COC2(CCN(c3nc(=O)c4cc(C(F)(F)F)cc([N+](=O)[O-])c4s3)CC2)O1	-	fluorescence	-	-	0.009 µM
CCCCCCCCCCCCCCCC#CC(=O)Oc1nccnc1C(=O)OCCC	-	-	-	Pasteur	6 µM
O=C(NCCOCCOCCNC(=O)c1ccc2c(c1)B(O)OC2)c1ccc2c(c1)B(O)OC2	-	visual reading / absorbance	-	-	780 µM
Cc1c(CN2CCN(C)CC2)cc(-c2ccc(Cl)cc2)n1-c1ccc(Cl)cc1	-	-	-	-	1.88 µM
CCc1ccccc1OCCCON1C(N)=NC(N)=NC1(C)C	-	fluorescence	-	-	2.8 µM
CC(C)[C@]1(O)CC[C@]2(C)C[C@@H]3O[C@]3(C)C[C@H](OC(=O)c3ccc(O)cc3)C21	-	-	-	Pasteur	50 µg/mL
Cc1ccc(-c2cc(CN3CCOCC3)c(C)n2-c2ccc(F)cc2)cc1	-	-	-	WILD TYPE	0.08 µM
CC(C)CCSc1ccc(NC(=S)Nc2ccc(SCCC(C)C)cc2)cc1	-	-	-	NCTC 5692 ethR::hyg	2.5 µg/mL

The first 2 rows once more:

compound	changes	read by	conditions	strain	result
COc1cc(C(=O)O[C@H]2C=C(C)/C(=C\CO)C[C@@]3(C)CC[C@@](O)(C(C)C)C23)ccc1O	-	-	-	Pasteur	>50 µg/mL
CCCCCCCCC#CCCCCCCC#CC(=O)O	-	-	-	Pasteur	5.4 µM